PubChem BioAssay AID1259414 – Drosophila RNAi Screening Center, 2018
Aim: 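Host factors increasing or decreasing Wolbachia levels in cultured fly cells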 (primary screen). Cells: Drosophila JW18 cells infected with Wolbachia. Reagents: long dsRNA against Drosophila genes, 0.25 µg dsRNA per well of a 384-well plate. Time to read-out: 5 days. Treatment: cells persistently infected with Wolbachia before knock-down; no added drug. Measured: 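Imaged fluorescence in situ signal for Wolbachia 23S rRNA per DAPI-counted host cell, given as a robust z-score within each plate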. Direction: Wolbachia per cell robust z: higher = more Wolbachia per host cell than the plate typical. Active means: 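Active if absolute robust z reaches 1.5 in two or more of three replicates, leaving out multi- or no-target dsRNAs, genes unexpressed in JW18 and A1 wells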.
In all, the deposit lists about 24,000 reagents; this is a random part of those that have a named target and a result. Of all reagents, about 1,210 (5%) were called active. 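Inactive calls also include excluded dsRNAs with several or no targets, genes unexpressed in JW18, and well A1, regardless of score.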 A number with no mark means an inactive call.

no.	Target gene	PubChem SID	Wolbachia per cell robust z, rep 1	Wolbachia per cell robust z, rep 2	Wolbachia per cell robust z, rep 3
1	Abd-B	SID104193890	0.182	-1.73	-5.3
2	Abd-B	SID104194129	1.27	-5.04	0.403
3	Abd-B	SID104207340	-0.298	0.0502	0.838
4	CG7900	SID104196128	0.223	0.598	-0.795
5	CG7900	SID104201122	-1.26 (active)	-1.81	-1.61
6	CG2082	SID104191917	-2.15	-0.548	0.345
7	CG2082	SID104205000	0.628	0.511	-1.33
8	wech	SID104186398	0.61	0.0604	0.169
9	Hmt-1	SID104195347	0.873	-0.144	0.0128
10	nopo	SID104186710	-1.16	-1.15	-2.65
11	CG32590	SID104199386	-2.03	-0.00129	0.123
12	CG5388	SID104195581	0.753	0.688	0.191
13	CSN4	SID104187142	1.45	0.498	-1.19
14	san	SID104187487	-0.474	0.588	0.433
15	CG9663	SID104180516	-0.306	-3.22	-0.944
16	Ubc84D	SID104192402	0.986	-0.168	-0.732
17	Ubc84D	SID104203930	-2.47	-2.33	-1.6
18	CG34115	SID104216196	0.036	0.36	-0.937
19	Cyp313a4	SID104196419	0.815	-0.43	0.31
20	CG9400	SID104199974	-4.48	0.716	1.2
21	CG30269	SID104183950	-2.68	0.374	-0.516
22	CG33253	SID104199339	0.984	0.191	-3.02
23	CG33253	SID104199845	0.717	0.83	0.496
24	CG10257	SID104185777	-1.34	-4.27	0.162
25	Nup93-1	SID104199136	0.341	-0.253	-0.76
26	SdhC	SID104195880	-3.49	-0.0134	0.408
27	CG31548	SID104202046	-0.51	0.26	1.23
28	CG31548	SID104204307	1.23	-0.15	0.207
29	l(2)k09022	SID104181900	-1.08	0.772	0.0978
30	CG34005	SID104216440	0.365	-0.346	-0.134
31	RpL24-like	SID104195903	0.793	-4.72	1.14
32	CG7550	SID104190667	1.23	-4.61	0.457
33	Ugt35B1	SID104196685	0.315	0.326	0.0769
34	Ugt35B1	SID104206062	-0.683	0.927	0.668
35	Ugt35B1	SID104216556	-0.0305	0.245	1.18
36	RAF2	SID104190235	0.136	-0.263	-1.83
37	RAF2	SID104190246	0.284	0.557	-0.48
38	RAF2	SID104204980	1.03	1.1	0.795
39	beat-IIa	SID104194605	-0.275	0.102	0.665
40	beat-IIa	SID104194606	1.19	-2.22	0.387
41	lncRNA:CR31044	SID104201918	0.0195	0.239	-4
42	lncRNA:CR31044	SID104204533	0.359	0.584	0.3
43	CG34447	SID104180533	0.618	-0.221	0.126
44	CG34447	SID104218994	-0.189	-0.625	-0.674
45	beat-IV	SID104193987	0.137	-1.44	-1.74
46	beat-IV	SID104194465	-2.74	0.0482	0.571
47	CG13297	SID104189763	0.617	0.905	-0.695
48	PolE1	SID104195904	-7.39 (active)	0.693	-1.76
49	PolE1	SID104206157	-0.828	-0.646	-0.232
50	CG13168	SID104186087	-0.177	-0.0502	-1.18
51	FucTD	SID104188426	0.0682	-1.33	-0.355
52	Su(H)	SID104183237	0.607	-3.43	-0.415
53	Su(H)	SID104216690	-0.39	-0.319	0.0452
54	Kdm2	SID104194078	-3.4 (active)	-2.52	0.954
55	Moca-cyp	SID104195156	-1.93	-0.836	-0.966
56	Moca-cyp	SID104204060	-0.413	-0.496	-1.94
57	SmD1	SID104189592	0.966	-0.44	-7.72
58	SmD1	SID104207115	1.53 (active)	1.68	3.75
59	SmD1	SID104218820	-0.0182	1.5	-2.24
60	CG14300	SID104194571	-0.527	0.81	-0.00407
61	lncRNA:CR43372	SID104194833	-0.869	0.281	0.184
62	AP-1sigma	SID104195691	-0.318	-0.287	-2.3
63	Tif-IA	SID104183509	1.05	1.25	1.12
64	Tif-IA	SID104183518	0.423	1.09	0.897
65	mas	SID104188512	0.000704	0.493	-0.336
66	mas	SID104207449	-0.353	-0.0946	0.768
67	Ssrp	SID104184450	-0.133	-6.02	-2.17
68	Ssrp	SID104208503	0.539	-0.775	-8.24
69	Ssrp	SID104216535	3.42	2.9	1.27

4 entries from above, ordered by “Wolbachia per cell robust z, rep 1”, high to low.
Target gene	PubChem SID	Wolbachia per cell robust z, rep 1	Wolbachia per cell robust z, rep 2	Wolbachia per cell robust z, rep 3
Nup93-1	SID104199136	0.341	-0.253	-0.76
CG31548	SID104202046	-0.51	0.26	1.23
CG10257	SID104185777	-1.34	-4.27	0.162
SdhC	SID104195880	-3.49	-0.0134	0.408
